SMILES strings stand for the structures. This is a selection; strong and weak results do not stand in their true shares. Activity calls are given as the source filed them.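 Rule for the calls: active = mean lysis activity across replicates of at least 80%, whatever share of replicates individually reach that level; inactive = mean lysis activity below 80%.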

This experiment in a line: fungicidal lysis via adenylate kinase leakage – AK release luminescence, single concentration, primary screen (AID 651654). To be noted: C. neoformans lysis, 4 h, at 15 µM, stronger effect = higher value, normalised: neutral wells 0, clomiphene wells 100. The method in brief: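 read-out = cell lysis signal | test system = log-phase Cryptococcus neoformans yeast cells | input = cells at 5 × 10^6 per mL | medium = fresh YPD growth medium | signal = luminescent adenylate kinase detection reagent | timing = 4 h at 37 °C static, read 1 h later | dosing = single dose | controls = Clomiphene as positive lysis control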
With `O=c1[nH]c2ccccc2n1C1CCN(C(c2ccccc2OC(F)(F)F)c2nnnn2C2CCCCC2)CC1` (stereo not drawn), the lysis activity is inactive: -0.335%.
As to `O=C(NCC1(N2CCCCC2)CCCCC1)c1ccc(Cl)nc1`, the lysis activity is inactive: -1.73%.
The same measure for `Cc1cc(C)cc(N(C(=O)c2ccccc2)C2CCN(C(=O)OC(C)(C)C)CC2)c1`: inactive: -0.738%; for `CCOC(=O)N1CCC(Nc2ccc(OC)cc2)CC1`: inactive: -0.497%; for `CCCCn1nnnc1C(c1ccc(OC)cc1)N1CCC(n2c(=O)[nH]c3ccccc32)CC1` (stereo not drawn): inactive: 2.28%.
The same measure for `O=C(OC1CN2CCC1CC2)C1c2ccccc2Oc2ccccc21` (stereo not drawn): inactive: 13.4%; for `O=c1[nH]c2ccccc2n1C1CCN(C(c2cc3ccccc3o2)c2nnnn2C2CCCCC2)CC1` (stereo not drawn): inactive: -1.01%.
The same measure for `O=C(NCC1(N2CCCCC2)CCCCC1)c1ccc(Cl)s1`: inactive: -0.211%; for `O=C(NCC1(N2CCCCC2)CCCCC1)c1ccc(=O)[nH]c1`: inactive: -1.45%.
`CCCCn1nnnc1C(c1cccs1)N1CCC(n2c(=O)[nH]c3ccccc32)CC1` (stereo not drawn): the lysis activity is inactive: 1.95%.
As for `O=C(NCC1(N2CCCCC2)CCCCC1)c1cccs1`, the lysis activity was inactive: -1.86%.
As for `CCCCn1nnnc1C(CC)N1CCC(n2c(=O)[nH]c3ccccc32)CC1` (stereo not drawn), the figure is inactive: -0.704%; as for `COc1ccc(C(=O)NCC2(N3CCCCC3)CCCCC2)cc1`, inactive: 0.064%.
The same measure for `CCC(c1nnnn1C1CCCC1)N1CCC(n2c(=O)[nH]c3ccccc32)CC1` (stereo not drawn): inactive: -1.01%.
As for `CC(C)(C)OC(=O)N1CCC(N(C(=O)c2ccccc2)c2ccc(F)cc2)CC1`, the figure is inactive: 0.598%; as for `CSc1ccccc1C(=O)NCC1(N2CCCCC2)CCCCC1`, inactive: -2.37%; as for `Cc1cccc(NC2(C#N)CCN(Cc3ccccc3)CC2)c1`, inactive: -0.429%.
With `O=c1[nH]c2ccccc2n1C1CCN(C(c2ccccc2)c2nnnn2C2CCCCC2)CC1` (stereo not drawn), the lysis activity was inactive: -1.19%.
As for `O=c1[nH]c2ccccc2n1C1CCN(C(c2cccc3ccccc23)c2nnnn2C2CCCC2)CC1` (stereo not drawn), the figure is inactive: -13.2%; as for `COc1cc(C(=O)NCC2(N(C)C)CCCCC2)ccc1OC(F)F`, inactive: 1.25%; as for `CCOC(=O)N1CCC(Nc2cccc(C)c2)CC1`, inactive: -0.224%.
The same measure for `CC(C)(C)n1nnnc1C(c1ccccc1)N1CCC(n2c(=O)[nH]c3ccccc32)CC1` (stereo not drawn): inactive: 3.38%; for `O=C1CCN(Cc2ccccc2)CC1`: inactive: -5.19%; for `O=C(NCC1(N2CCCCC2)CCCCC1)c1ccc(F)cc1`: inactive: -0.3%.
As for `O=P1(N(CCCl)CCCl)SCCCS1`, the figure is inactive: 2.52%; as for `CCCCn1nnnc1C(c1cc2ccccc2o1)N1CCC(n2c(=O)[nH]c3ccccc32)CC1` (stereo not drawn), inactive: -13.4%.
As to `CCCCOc1ccc(C(=O)NCC2(N3CCOCC3)CCCCC2)cc1`, the lysis activity is inactive: -0.694%.
The same measure for `COc1ccc(NC2CCN(CCc3ccccc3)CC2)c(OC)c1`: inactive: -1.89%.
As for `CCOC(=O)N1CCC(Nc2ccc(F)cc2)CC1`, the figure is inactive: 0.658%; as for `O=C(NCC1(N2CCCCC2)CCCCC1)c1cccc(C(F)(F)F)c1`, inactive: 0.699%; as for `CCCCn1nnnc1C(c1cccc2ccccc12)N1CCC(n2c(=O)[nH]c3ccccc32)CC1` (stereo not drawn), inactive: -0.156%.
`CN1CCN(CCOC(=O)C(O)(c2ccccc2)c2ccccc2)CC1`: the lysis activity is inactive: -4.65%.
With `COc1cc(C(=O)NCC2(N3CCCCC3)CCCCC2)ccc1OC(F)F`, the lysis activity is inactive: -2.72%.
Consider `O=C(NCC1(N2CCOCC2)CCCCC1)c1cc(=O)[nH]c2ccccc12`, for which the lysis activity is inactive: -0.175%.
As for `CC(C)(C)n1nnnc1C(c1ccccc1OC(F)(F)F)N1CCC(n2c(=O)[nH]c3ccccc32)CC1` (stereo not drawn), the figure is inactive: -12.3%; as for `O=C(NCC1(N2CCCCC2)CCCCC1)c1ccc(OC(F)F)cc1`, inactive: 2.18%.
Regarding `CSc1ccc(C(=O)NCC2(N3CCOCC3)CCCCC2)cc1`, the lysis activity is inactive: -0.012%.
The same measure for `CCN1CCC(Nc2ccc(Cl)cc2)CC1`: inactive: -0.65%.
Turning to `N#CC1(Nc2ccccc2)CCN(CCc2ccccc2)CC1`, the lysis activity was inactive: 2.82%.
The same measure for `O=c1[nH]c2ccccc2n1C1CCN(C(c2ccccc2OC(F)(F)F)c2nnnn2C2CCCC2)CC1` (stereo not drawn): inactive: 0.531%; for `O=C(NCC1(N2CCCCC2)CCCCC1)c1cncc(Br)c1`: inactive: 1.39%.
The same measure for `CN1CCC(Nc2cccc(F)c2)CC1`: inactive: -1.73%; for `Cc1ccc(C(=O)NCC2(N(C)C)CCCCC2)o1`: inactive: 7.04%; for `CCCOc1ccc(C(=O)NCC2(N(C)C)CCCCC2)cc1OC`: inactive: -1.68%.
As for `COc1ccc(C(c2nnnn2C2CCCC2)N2CCC(n3c(=O)[nH]c4ccccc43)CC2)cc1` (stereo not drawn), the figure is inactive: 2.05%; as for `CN(C)c1cccc(C(=O)NCC2(N3CCCCC3)CCCCC2)c1`, inactive: 2.05%.
Take `CCCCn1nnnc1C(c1ccccc1OC(F)(F)F)N1CCC(n2c(=O)[nH]c3ccccc32)CC1` (stereo not drawn): the lysis activity is inactive: -15.7%.
As for `CCCCn1nnnc1C(c1ccnc2ccccc12)N1CCC(n2c(=O)[nH]c3ccccc32)CC1` (stereo not drawn), the figure is inactive: -1.39%; as for `COc1cc(OC)c(C(=O)NCC2(N(C)C)CCCCC2)cc1OC`, inactive: -3.48%.
As for `O=C(NCC1(N2CCOCC2)CCCCC1)c1cc(F)c(F)cc1Cl`, the figure is inactive: -2.66%; as for `CCC(c1nnnn1C(C)(C)C)N1CCC(n2c(=O)[nH]c3ccccc32)CC1` (stereo not drawn), inactive: -0.683%.
As for `N/C(=N\O)c1c(N)no[n+]1[O-]`, the figure is inactive: 0.12%; as for `COc1cccc(C(c2nnnn2C(C)(C)C)N2CCC(n3c(=O)[nH]c4ccccc43)CC2)c1OC` (stereo not drawn), inactive: -2.03%; as for `CCOC(=O)N1CCC(Nc2ccc(C)cc2)CC1`, inactive: 1.28%.
Turning to `CCCCn1nnnc1C(c1cccc(OC)c1OC)N1CCC(n2c(=O)[nH]c3ccccc32)CC1` (stereo not drawn), the lysis activity was inactive: -0.407%.
Turning to `O=c1[nH]c2ccccc2n1C1CCN(C(c2cccs2)c2nnnn2C2CCCC2)CC1` (stereo not drawn), the lysis activity was inactive: -1.69%.
The same measure for `O=C(NCC1(N2CCOCC2)CCCCC1)c1cc(Br)ccc1Cl`: inactive: -1.79%; for `CCCCn1nnnc1C(c1ccccc1)N1CCC(n2c(=O)[nH]c3ccccc32)CC1` (stereo not drawn): inactive: -0.353%.

The values are drawn from PubChem BioAssay AID651654 (Broad Institute, 2012).
